A mixed list of measured activities; the numbers were collected in NIAID ChemDB.

Common to all: host cell toxicity; cells: MT-4; measure: CC50

CCn is the concentration with n% toxicity to the cells.

compound | value
Nc1nccc2c1nnn2[C@H]1CC[C@@H](CO)O1 | 387 µM
C/C1=C\C=C\C2(C)C=C(CO)C(C)CC23OC([O-])C(C3=O)C(O)/C=C/C2(C)C=C(C=O)C(C)CC23OC([O-])C(C3=O)C(O)/C(C)=C/C=C/C2C=C(CO)C(C)CC23OC([O-])C(C3=O)C(O)/C=C/C2(C)C=C(C=O)C(C)CC23OC([O-])C(C3=O)C1O | >100 µg/mL
CCCCC1(CCc2cccc(NS(=O)(=O)c3ccc(C)cc3)c2)COC(=O)C(C(CC)c2cccc(NS(=O)(=O)c3ccc(C)cc3)c2)=C1O | 66.6 µM
CCOCn1c(Cc2c(F)ccc(F)c2F)c(CC)c(=O)[nH]c1=O | >100 µM
CC(C)c1nc(CN(C)C(=O)N[C@H](C(=O)N[C@@H](Cc2ccccc2)[C@H](O)CN2CCN(Cc3ccccc3)C[C@H]2C(=O)NC(C)(C)C)C(C)C)cs1 | 56 µM
Nc1nc2c(ncn2[C@@H]2C[C@@H](F)[C@H](CO)O2)c(=O)[nH]1 | >100 µM
OC[C@H]1O[C@@H](n2nnc3c(Cl)nccc32)[C@H](O)[C@@H]1O | 359 µM
CCNCC(=O)Nc1ccc(Cl)cc1S(=O)(=O)n1cccc1C(=O)OCC | 116 µM
CC(C)(C)OC(=O)N(Cc1ccccc1)CC(O)C(Sc1ccccc1)N(Cc1ccccc1)C(=O)OC(C)(C)C | 50 µM
CCCCC1(CCc2cccc(NS(=O)(=O)c3ccc(C#N)cc3)c2)COC(=O)C(C(CC)c2cccc(NS(=O)(=O)c3ccc(C#N)cc3)c2)=C1O | 46.9 µM
CN(C(=O)N(Cc1ccccc1)CC(O)C(Sc1ccccc1)N(Cc1ccccc1)C(=O)N(C)c1ccccc1)c1ccccc1 | 50 µM
CCOC(=O)c1cccn1S(=O)(=O)c1cc(Cl)ccc1NC(=O)CC | >200 µM
CCCCC1(CCc2cccc(NS(=O)(=O)c3ccc(OC)cc3)c2)COC(=O)C(C(CC)c2cccc(NS(=O)(=O)c3ccc(OC)cc3)c2)=C1O | 29.9 µM
CC(C)[C@@H](NC(=O)N(C)Cc1cncs1)C(=O)N[C@@H](Cc1ccccc1)[C@H](O)CN1CCN(Cc2ccccc2)C[C@H]1C(=O)NC(C)(C)C | 56 µM
Nc1ncnc2c1nnn2[C@H]1CC[C@@H](CO)O1 | 0.3 µM
C=C(C)COCn1c(Cc2cccc(F)c2)c(CC)c(=O)[nH]c1=O | >100 µM
Cc1cc(C)c(-c2c3nc(c(-c4c(C)cc(C)cc4C)c4ccc([nH]4)c(-c4c(C)cc(C)cc4C)c4nc(c(-c5c(C)cc(C)cc5C)c5ccc2[nH]5)C=C4)C=C3)c(C)c1 | 4 µg/mL
CC(C)c1nc(COC(=O)N[C@@H](C(=O)N[C@@H](Cc2ccccc2)[C@H](O)CN2CCN(Cc3cncs3)C[C@H]2C(=O)NC(C)(C)C)C(C)C)cs1 | 18 µM
CC(C)[C@H](NC(=O)c1ccc2ccccc2n1)C(=O)N(Cc1ccccc1)CC(O)C(Sc1ccccc1)N(Cc1ccccc1)C(=O)[C@@H](NC(=O)c1ccc2ccccc2n1)C(C)C | 50 µM
O=S(=O)(O)O.OCC(O)C(O)C(OC1OC(CO)C(O)C(OC2OC(CO)C(O)C(OC3OC(CO)C(O)C(OC4OC(CO)C(O)C(O)C4O)C3O)C2O)C1O)C(O)CO | 238 µg/mL
COc1ccc(CN(CC(O)C(Sc2ccccc2)N(Cc2ccc(OC)cc2)C(=O)OCC(C)C)C(=O)OCC(C)C)cc1 | 50 µM
CCOC(=O)c1cccn1S(=O)(=O)c1cc(Cl)ccc1NC(=O)CBr | 1.7 µM
COc1ccc(CN2CCN(C[C@@H](O)[C@H](Cc3ccccc3)NC(=O)[C@@H](NC(=O)OCc3csc(C)n3)C(C)C)[C@H](C(=O)NC(C)(C)C)C2)cc1OC | 57 µM
CCOC(=O)c1cccn1S(=O)(=O)c1cc(Cl)ccc1NC(=O)c1ccc(C)cc1 | >200 µM
O=C1CSC(c2c(Cl)cccc2Cl)N1Cc1cccs1 | 41.33 µM
OC[C@H]1O[C@@H](n2nnc3ccnc(Cl)c32)[C@H](O)[C@@H]1O | 15 µM
CCOC(=O)c1cccn1S(=O)(=O)c1cccc(N)c1 | >200 µM
CCOCn1c(Cc2cc(C(F)(F)F)cc(C(F)(F)F)c2)c(C(C)C)c(=O)[nH]c1=O | >100 µM
Nc1nccc2nnn([C@@H]3O[C@H](CO)[C@@H](O)[C@H]3O)c12 | >398 µM
CC(C)[C@H](NC(=O)OC(C)(C)C)C(=O)NCC(O)C(NC(=O)[C@@H](NC(=O)OC(C)(C)C)C(C)C)Sc1ccccc1 | 50 µM
O=C1CSC(c2c(F)cccc2Cl)N1Cc1cccs1 | 41.58 µM
Nc1ccn([C@H]2C[C@H]3OC[C@@H](O)[C@H]3O2)c(=O)n1 | >100 µM
O=S(=O)(O)O.OCC(O)C(O)C(OC1OC(CO)C(O)C(OC2OC(CO)C(O)C(OC3OC(CO)C(O)C(OC4OC(CO)C(O)C(OC5OC(CO)C(O)C(O)C5O)C4O)C3O)C2O)C1O)C(O)CO | 254 µg/mL
Cn1cccc1CN1C(=O)CSC1c1c(F)cccc1Cl | 69.37 µM
COc1cc(CN2CCN(C[C@@H](O)[C@H](Cc3ccccc3)NC(=O)[C@@H](NC(=O)N(C)Cc3csc(C(C)C)n3)C(C)C)[C@H](C(=O)NC(C)(C)C)C2)ccc1O | 20 µM
CCOCn1c(Cc2cc(C)cc(C)c2)c(C(C)C)c(=O)[nH]c1=O | 30 µM

The last 5 rows once more:

| compound | value |
|---|---|
| Nc1ccn([C@H]2C[C@H]3OC[C@@H](O)[C@H]3O2)c(=O)n1 | >100 µM |
| O=S(=O)(O)O.OCC(O)C(O)C(OC1OC(CO)C(O)C(OC2OC(CO)C(O)C(OC3OC(CO)C(O)C(OC4OC(CO)C(O)C(OC5OC(CO)C(O)C(O)C5O)C4O)C3O)C2O)C1O)C(O)CO | 254 µg/mL |
| Cn1cccc1CN1C(=O)CSC1c1c(F)cccc1Cl | 69.37 µM |
| COc1cc(CN2CCN(C[C@@H](O)[C@H](Cc3ccccc3)NC(=O)[C@@H](NC(=O)N(C)Cc3csc(C(C)C)n3)C(C)C)[C@H](C(=O)NC(C)(C)C)C2)ccc1O | 20 µM |
| CCOCn1c(Cc2cc(C)cc(C)c2)c(C(C)C)c(=O)[nH]c1=O | 30 µM |

Rows are shuffled and stem from different studies.